Laboratory results: PubChem BioAssay AID504761 (Drosophila RNAi Screening Center, 2011)

Assay: 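Genome-wide fly cell screen for genes dengue virus requires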 (primary screen)
System: D.Mel-2 cells from Drosophila
Knock-down reagent: long dsRNA against Drosophila genes
Challenge: infection with dengue virus type 2; dose and infection time not stated
Read-out: 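Cells stained for dengue envelope protein and imaged; percent of infected cells per well on duplicate plates, ranked by infection, with stained nuclei counted for cell number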
Scale: infection score: higher = more virus-infected cells; cell count: higher = more cells in the well
Call rule: 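Low infection ranks in the two replicates (chance level up to 0.065) followed by a retest with a 1.5-fold or larger significant decrease, p below 0.05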
Meaning of the calls: active = confirmed: knock-down lowers infection; inactive = not picked or not confirmed
In all, the deposit lists about 22,000 reagents; below is an unselected part of those with a known target gene and a result. In the full data, 116 (0.52%) were called active. 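Calls depend on retest data that are not deposited; infection was ranked per plate without normalising between plates; the unit of the infection score is not given.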 The raw values are shown without normalisation. Reagent sequences are not shown. Not stated in the record: the amount of reagent, the time to read-out.

The opening 4 records as a preview:
gene	dsRNA	infection score, replicate 1	infection score, replicate 2	cell count, replicate 1	cell count, replicate 2	outcome
bab1	DRSC08709	2.75	6.68	6261	6275	inactive
bab1	DRSC21882	10.8	18.2	6401	3880	inactive
bab1	DRSC25457	2.76	3.34	6714	6703	inactive
CG3287 (retired record)	DRSC04991	33.9	24.6	5259	6053	inactive

The listing, from the first entry:
gene	dsRNA	infection score, replicate 1	infection score, replicate 2	cell count, replicate 1	cell count, replicate 2	outcome
bab1	DRSC08709	2.75	6.68	6261	6275	inactive
bab1	DRSC21882	10.8	18.2	6401	3880	inactive
bab1	DRSC25457	2.76	3.34	6714	6703	inactive
CG3287 (retired record)	DRSC04991	33.9	24.6	5259	6053	inactive
CG7326	DRSC20037	0.37	0.54	6178	5741	inactive
CG31601	DRSC03678	4.91	1.15	6066	5742	inactive
Ir41a	DRSC04730	0.92		6424		inactive
Ir41a	DRSC04875	19.2	1.01	5872	696	inactive
CG14069	DRSC02372	1.72	2.63	6460	6490	inactive
SdhC	DRSC16088	18	6.71	3936	6955	inactive
Cul6	DRSC09830	3.44	6.52	6571	6645	inactive
AMPKalpha	DRSC18714	1.96	3.17	3513	4421	inactive
AMPKalpha	DRSC28055	17.1	6.49	5635	6089	inactive
PIG-O	DRSC06123	10.4	11	6358	6562	inactive
pigs	DRSC17472	0.06	0.21	6821	6528	inactive
pigs	DRSC18334	4.61	5.5	6426	6311	inactive
pigs	DRSC18335	16.9	13.6	5602	5740	inactive
Osi3	DRSC12175	5.25	5.4	6321	6791	inactive
CG13252	DRSC11700	6.24	3.05	6567	6449	inactive
CG13252	DRSC27577	4.2	4.5	6569	6307	inactive
CG5065	DRSC06912	16	6	4514	6716	inactive
CG15333	DRSC18016	27	26.7	4446	3086	inactive
CG15333	DRSC18153	17.3	7.72	5177	4610	inactive
MME1	DRSC02714	7.33	1.27	5891	6166	inactive
CG4702	DRSC15626	17.5	20	5139	5641	inactive
hubl	DRSC06825	3.83	8.61	6787	6780	inactive
zyd	DRSC20716	0.37	1.91	5950	5960	inactive
CG7924	DRSC10931	5.16	12.6	5488	5378	inactive
CG7924	DRSC25661	4.39	4.56	6832	6332	inactive
nkt	DRSC10144	9.64	6.86	4200	6416	inactive
Mp	DRSC10193	0.59	1.37	6243	7066	inactive
Mp	DRSC11029	3.54	2.24	6130	6204	inactive
Mp	DRSC11030	2.77	5.51	5875	5538	inactive
CG13053	DRSC09934	0.64	2.24	6444	5933	inactive
Clbn	DRSC14404	1.93	3.33	6517	6160	inactive
Obp57c	DRSC06384	3.23	1.75	6403	6415	inactive
Gr98d	DRSC14571	5.25		6894	363	inactive
Gr98d	DRSC24547	2.38	0.83	6601	6274	inactive
cry	DRSC16928	0.18	1.97	6603	6810	inactive
shps	DRSC14614	16	0.97	5450	6693	inactive
spartin	DRSC12187	4.38	11.8	6784	6087	inactive
spartin	DRSC27182	2.23	29.3	7035	6574	inactive
run	DRSC20584	4.01	5.71	5713	6283	inactive
run	DRSC21515	3.23	2.37	6012	6596	inactive
run	DRSC27251	21.1	12.4	5562	6792	inactive
CG30471	DRSC07096	21.1	9.97	5656	3672	inactive
Hecw	DRSC18261	4.92	1.74	6339	6481	inactive
Hecw	DRSC18276	20.2	22.5	634	2508	inactive
Hecw	DRSC25872	9.42	4.28	6112	6547	inactive
Rab19	DRSC11260	2.02	1.2	5889	6166	inactive
Rab19	DRSC29485	5.99	3	851	700	inactive
obst-I	DRSC08339	16.4	23.4	7039	6168	inactive
Chd3	DRSC11114	3.84	4.31	6458	6543	inactive
Chd3	DRSC23701	6.65	3.28	5611	6135	inactive
px	DRSC23244	1.14	21.4	6574	4890	inactive
px	DRSC25863	1.77	1.75	6485	6274	inactive
kon	DRSC02033	13.9	12.3	6545	6422	inactive
Lamtor1	DRSC10183	13.6	17.7	6220	6027	inactive
Gmd	DRSC03119	10.7	4.66	5846	5861	inactive
Gmd	DRSC27937	15.3	7.9	5205	4912	inactive
Tmtc4	DRSC15702	0.81	5.21	6565	5947	inactive
T3dh	DRSC28231	13.3	7.48	5444	4344	inactive
Mer	DRSC20259	5.52	2.59	2645	5900	inactive
Usp2	DRSC20590	2.91	6.63	6399	6441	inactive
Usp2	DRSC20632	1.11	3	6557	6908	inactive
Usp2	DRSC20633	8.6	3.85	6154	5165	inactive
Usp2	DRSC27066	9.93	4.55	6670	6617	inactive
CG18666	DRSC02694	2.41	2.56	6185	5940	inactive
CG7886	DRSC16333	1.68	8.99	6617	6107	inactive
mxc	DRSC17819	4.7	2.03	4168	4622	inactive
Mapmodulin	DRSC06956	4.12	12.4	5091	4804	inactive
Def	DRSC07398	28.9	2.68	5280	6631	inactive
Snap25	DRSC21228	9.45	2.49	6299	6275	inactive
Snap25	DRSC21236	2.29	3.06	6856	5913	inactive
